Assay [1] addresses 164.
Assay [2] has as its target 165.
For assay [3], the target named is 163.

B1: monoclonal antibody CR9114 (antibody, V domains shown)
VH: QVQLVQSGAEVKKPGSSVKVSCKSSGGTSNNYAISWVRQAPGQGLDWMGGISPIFGSTAYAQKFQGRVTISADIFSNTAYMELNSLTSEDTAVYFCARHGNYYYYSGMDVWGQGTTVTVSS
VL: SYVLTQPPAVSGTPGQRVTISCSGSDSNIGRRSVNWYQQFPGTAPKLLIYSNDQRPSVVPDRFSGSKSGTSASLAISGLQSEDEAEYYCAAWDDSLKGAVFGGGTQLTVL
For B1, the results for the “EC50 (read off the curve)” value in assay [1], in assay [2] and in assay [3] were roughly 0.08 µg/mL, roughly 0.05 µg/mL and roughly 0.1 µg/mL, respectively.

Usually EC50 (read off the curve) stands for the concentration at which the effect is half-maximal. Low readings indicate an effect from little substance, high ones a need for much substance.
